Compound potency records, mixed from different reports. Data source: NIAID ChemDB in PubChem.

All rows: whole-cell or culture tests; organism: Mycobacterium tuberculosis

Lines come from different laboratories, so protocols vary.

| smiles | changes | tested at | read by | read-out | strain | value |
|---|---|---|---|---|---|---|
| O=c1[nH]c2ccccc2c(=O)n1-c1ccc(Br)cc1 |  |  |  | MIC | My 331/88 | >500 µM |
| CO[C@H]1/C=C/O[C@@]2(C)Oc3c(C)c(O)c4c(O)c(c(/C=N/N5CCN(C)CC5)c(O)c4c3C2=O)NC(=O)/C(C)=C\C=C\[C@H](C)[C@H](O)[C@@H](C)[C@@H](O)[C@@H](C)[C@H](OC(C)=O)[C@@H]1C |  |  |  | MIC50 | 22 strains | 0.1 µg/mL |
| Nc1c(NC(=O)CCc2ccccc2)cc(Cl)cc1[N+](=O)[O-] |  |  | broth dilution | MIC | Isolate 192 | >100 µg/mL |
| O=c1oc2ccccc2c(=O)n1-c1ccc(Br)cc1 |  |  |  | MIC | My 331/88 | 31 µM |
| O=C(NCc1cccc([N+](=O)[O-])c1)c1ncccc1O |  |  |  | MIC | CNCTC MY 331/8 | 500 µM |
| O=C1Nc2ccccc2/C1=N/N=C/c1ccco1 |  | 12.5 µg/mL | BACTEC | inhibition | H37Rv | 20% |
| O=C(N=Nn1c(O)c(O)c2ccccc21)c1cc(/C=C\c2ccco2)on1 |  | 6.25 µg/mL | resazurin | inhibition | H37Rv | 39% |
| O=C(NCc1cccc(Cl)c1)c1ncccc1S |  |  |  | MIC | CNCTC MY 331/8 | 8 µM |
| CCOC(=O)c1ccc2c(c1)nc(-c1cccc(-c3ccc(F)cc3)c1)n2CCN1CCCOC1 |  |  | resazurin / fluorescence | EC50 | H37Rv | >100 µM |
| C=C1C(=O)[C@]23C[C@H]1CC[C@H]2[C@@]12CO[C@H](O)[C@@H]1C(C)(C)[C@@H](O)C[C@@H]2OC3=O |  | 12.5 µg/mL | BACTEC | inhibition | H37Rv | -1% |
| c1ccc(CCc2nc3cc4ccccc4cc3[nH]2)cc1 |  |  | broth dilution | MIC | H37Rv | >100 µg/mL |
| Cn1cc2c(c1-c1ccccc1)[n+](=O)c1ccccc1n2[O-] |  |  | resazurin | MIC bound | H37Rv | >6.25 µg/mL |
| Nc1ccccc1C(=O)Nc1ccc(F)cc1 |  |  |  | MIC | My 331/88 | >500 µM |
| O=C(CSCC(=O)N/N=C/c1ccccc1O)N/N=C/c1ccccc1O |  | 12.5 µg/mL | BACTEC | inhibition | H37Rv | 27% |
| CC(C)OC(=O)Nc1c(C#N)[n+]([O-])c2cc(Cl)c(Cl)cc2[n+]1[O-] |  | 6.25 µg/mL |  | inhibition | H37Rv | 99% |
| CCOC(=O)c1ccc2c(c1)nc(-c1ccccc1)n2CCN1CCCOC1 |  |  | resazurin / fluorescence | EC50 | H37Rv | >100 µM |
| CCCCCCCCCCCCS(=O)(=O)C[C@@H]1O[C@H](CO)[C@@H](O)[C@@H]1O |  | 6.25 µg/mL |  | inhibition | H37Rv | 45% |
| CC(C)c1ccc(NC(=S)c2ccccc2)cc1 |  |  |  | MIC | My 331/88 | 62.5 µM |
| O=C(N=Nc1c(O)n(CO)c2ccccc12)c1ccncc1 |  |  |  | MIC | BOVIN | 3 µg/mL |
| Cc1cc(N)c(C(=O)NN)cc1C |  | 12.5 µg/mL | BACTEC | inhibition | H37Rv | 9% |
| CCOC(=O)c1ccc2c(c1)nc(-c1ccc(O)cc1)n2CCN1CCCC1=O |  |  | resazurin / fluorescence | EC50 | H37Rv | >100 µM |
| Cc1cccc(C(=S)Nc2ccc(C(C)C)cc2)c1 |  |  |  | MIC | My 331/88 | 62.5 µM |
| CC(=O)c1ccc([N+](=O)ONNC(=O)c2ccco2)cc1 |  | 6.25 µg/mL | resazurin | inhibition | H37Rv | 62% |
| CCn1cc(C(=O)O)c(=O)c2cc([N+](=O)[O-])c3cccnc3c21 | gyrA mutation D94G |  |  | MIC90 | BCG | 2.67 µM |
| CCCCCCCCCC(=O)N[C@H]1[C@H](Oc2c3cc4cc2Oc2ccc(cc2Cl)[C@@H](O[C@@H]2O[C@H](CO)[C@@H](O)[C@H](O)[C@H]2NC(C)=O)[C@@H]2NC(=O)[C@H](NC(=O)[C@@H]4NC(=O)[C@H]4NC(=O)[C@@H](Cc5ccc(c(Cl)c5)O3)NC(=O)[C@H](N)c3ccc(O)c(c3)Oc3cc(O)cc4c3)c3ccc(O)c(c3)-c3c(O[C@H]4O[C@H](CO)[C@@H](O)[C@H](O)[C@@H]4O)cc(O)cc3[C@H](C(=O)O)NC2=O)O[C@H](CO)[C@@H](O)[C@@H]1O |  |  |  | MIC | L1910 | 32 µg/mL |
| O=C(Nc1ccc(C(F)(F)F)cc1)c1ncccc1O |  |  |  | MIC | CNCTC MY 331/8 | 32 µM |
| C=CCN1COc2c(cc3c4c(cccc24)C(=O)O3)C1 |  |  | BACTEC | MIC bound | H37Rv | >12.5 µg/mL |
| CCOC(=O)c1ccc2c(c1)nc(-c1ccc(N(C)C)cc1)n2CCN1CCCC1=O |  |  | resazurin / fluorescence | EC90 | H37Rv | >100 µM |
| CO[C@H]1/C=C/O[C@@]2(C)Oc3c(C)c(O)c4c(O)c(c(/C=N/N5CCN(C)CC5)c(O)c4c3C2=O)NC(=O)/C(C)=C\C=C\[C@H](C)[C@H](O)[C@@H](C)[C@@H](O)[C@@H](C)[C@H](OC(C)=O)[C@@H]1C | EJMCh6A MmpL3  (V684A) |  | visual reading / absorbance | MIC90 | H37Rv | 0.6 µM |
| O=Cc1ccc([N+](=O)ONNC(=O)c2ccco2)cc1 |  | 6.25 µg/mL | resazurin | inhibition | H37Rv | 35% |
| CCCCc1ccc(NC(=S)c2cccc([N+](=O)[O-])c2)cc1 |  |  |  | MIC | My 331/88 | 32 µM |
| Cc1cc2nc(CCC3CCCCC3)[nH]c2cc1C | 6B MmpL3 (V240A) |  | visual reading / absorbance | MIC90 | H37Rv | 1.93 µM |
| O=C(Nc1ccccc1)c1ccccc1O |  |  |  | MIC | CNCTC MY 331/8 | 62.5 µM |
| O=C(NCCO)C(=O)N/N=C/c1ccc([N+](=O)[O-])o1 |  |  | BACTEC | MIC | H37Rv | 6.25 µg/mL |
| O=c1oc2ccccc2c(=O)n1-c1ccc(F)cc1 |  |  |  | MIC | My 331/88 | 125 µM |
| O=C1C=C(Nc2ccc(Cl)cc2Cl)c2ccccc2C1=O |  |  | resazurin | MIC bound | H37Rv | >6.25 µg/mL |
| CCCCc1ccc(NC(=S)c2cccc(OC)c2)cc1 |  |  |  | MIC | My 331/88 | 32 µM |
| O=C1C(=O)c2nc3ccccc3nc2-c2ccccc21 |  |  | BACTEC | MIC | H37Rv | 6.25 µg/mL |
| O=[N+]([O-])c1cc(Cl)cc2[nH]c(CCc3ccccc3)nc12 |  |  | broth dilution | MIC | H37Rv | >100 µg/mL |
| O=C(Nc1ccc(Cl)cc1)c1ncccc1S |  |  |  | MIC | CNCTC MY 331/8 | 32 µM |
| CC1(C)CC[C@]2(C(=O)O)CC[C@]3(C)C(=CCC4[C@@]5(C)CC[C@H](O)C(C)(C)C5CC[C@]43C)C2C1 |  |  |  | MIC | H37Rv (streptomycin-resistant) | 50 µg/mL |
| Cc1cnc(C#N)c(-n2ccnc2)n1 |  | 12.5 µg/mL | BACTEC | inhibition | H37Rv | 7% |
| O=C(N=Nn1c(O)c(O)c2ccccc21)c1ccco1 |  | 6.25 µg/mL | resazurin | inhibition | H37Rv | 41% |
| CCN(CC)CCNC(=O)c1ccc(Cl)cc1 |  |  |  | MIC | N73 | 50 µg/mL |
| O=C1c2ccncc2C(=O)c2c1[nH]c1ccccc21 |  | 6.25 µg/mL | resazurin | inhibition | H37Rv | 99% |
| CCCCCCCCCCCCCCCCP(=O)([O-])C[C@@H]1O[C@H](CO)[C@@H](O)[C@@H]1O |  | 6.25 µg/mL |  | inhibition | H37Rv | 0% |
| CC(C)c1ccc(NC(=S)c2cccc([N+](=O)[O-])c2)cc1 |  |  |  | MIC | My 331/88 | 16 µM |
| O=C(Nc1ccc(Br)cc1)c1ccccc1O |  |  |  | MIC | CNCTC MY 331/8 | 31 µM |
| COc1c(N2CCc3ccccc3C2C(=O)NC(C)(C)C)c(F)cc2c(=O)c(C(=O)O)cn(C3CC3)c12 |  |  |  | MIC | H37Rv (MTB) | 13.31 µM |
| Cc1ccc(NCCN2CCCCC2)c2c(=O)c3ccccc3sc12 |  |  | BACTEC | MIC | H37Rv | 12.5 µg/mL |
| CCN(CC)CCNC(=O)c1cc(Cl)cc([N+](=O)[O-])c1 |  |  |  | MIC | H37Rv | 50 µg/mL |
| CCOC(=O)c1ccc2c(c1)nc(-c1ccc(O)cc1)n2CCN1CCCOC1 |  |  | resazurin / fluorescence | MIC | H37Rv | >100 µM |
| CN[C@H](CC(C)C)C(=O)N[C@H]1C(=O)N[C@@H](CC(N)=O)C(=O)N[C@H]2C(=O)N[C@H]3C(=O)N[C@H](C(=O)N[C@H](C(=O)O)c4cc(O)cc(O)c4-c4cc3ccc4O)[C@H](O)c3ccc(c(Cl)c3)Oc3cc2cc(c3O[C@@H]2O[C@H](CO)[C@@H](O)[C@H](O)[C@H]2O[C@H]2C[C@](C)(N)[C@H](O)[C@H](C)O2)Oc2ccc(cc2Cl)[C@H]1O |  |  | broth dilution / agar | MIC | H37Rv | 40 µg/mL |
| CCOC(=O)c1ccc2nc(-c3ccc(Br)cc3)[nH]c2c1 |  |  | resazurin / fluorescence | MIC | H37Rv | >100 µM |
| COc1cccc(C(=S)Nc2ccc(C(C)C)cc2)c1 |  |  |  | MIC | My 331/88 | 32 µM |
| CCCCCCCCCCCCCCCCOCCCCOP(=O)(O)C[C@@H]1O[C@H](CO)[C@@H](O)[C@@H]1O |  | 6.25 µg/mL |  | inhibition | H37Rv | 92% |
| CCn1cc(C(=O)O)c(=O)c2ccc(C)nc21 | gyrA mutation A90V |  |  | MIC90 | H37Rv | >50 µM |
| CCCn1c(O)c(N=NC(=O)c2ccncc2)c2ccccc21 |  |  |  | MIC | Human resistant isolate | 3.1 µg/mL |
| CCOC(=O)c1ccc2c(c1)nc(-c1ccc(C(F)(F)F)cc1)n2CCN1CCCOC1 |  |  | resazurin / fluorescence | EC50 | H37Rv | 16.14 µM |
| COc1ccc(-c2oc3cc(OC)cc(O)c3c(=O)c2OC)cc1 |  | 100 µg/mL | BACTEC | inhibition | H37Rv | 33% |
| COC(=O)Nc1c(C#N)[n+]([O-])c2ccccc2[n+]1[O-] |  | 6.25 µg/mL |  | inhibition | H37Rv | 98% |
| O=C(Nc1cccc(F)c1)c1ccccc1O |  |  |  | MIC | CNCTC MY 331/8 | 31 µM |
| CC1(C)[C@@H](O)CC[C@]2(C)[C@H]3C(=O)C=C4[C@H]5C[C@@](C)(C(=O)O)CC[C@]5(C)CC[C@@]4(C)[C@]3(C)CC[C@@H]12 |  |  | BACTEC | MIC bound | H37Rv | >128 µg/mL |
| NNC(=O)c1ccccc1 |  |  |  | MIC | Mtb 5 | 4 µg/mL |
| O=C(N/N=C/c1ccco1)C(=O)Nc1cccc(C(F)(F)F)c1 |  | 12.5 µg/mL | BACTEC | inhibition | H37Rv | 0% |
| CC(C)c1ccc(NC(=S)c2cccc(Br)c2)cc1 |  |  |  | MIC | My 331/88 | 32 µM |
| CCCCCCCCP(=O)([O-])C[C@@H]1O[C@H](CO)[C@@H](O)[C@@H]1O |  | 6.25 µg/mL |  | inhibition | H37Rv | 0% |
| CCC1CN2CCc3cc(OC)c(OC)cc3C2C(C2(O)C(=O)Nc3ccccc32)C1=O |  |  | BACTEC | MIC bound | H37Rv | >12.5 µg/mL |
| CCOC(=O)c1ccc2c(c1)nc(-c1ccc3c(c1)OCO3)n2CCN1CCCOC1 |  |  | resazurin / fluorescence | EC90 | H37Rv | >100 µM |
| CCCCCCCCCCCCCCCCCCCCS(=O)(=O)C[C@@H]1O[C@H](CO)[C@@H](O)[C@@H]1O |  |  |  | EC50 | H37Rv | >6.25 µg/mL |
| C=CCSS/C=C/CS(=O)CC=C |  |  |  | MIC | H37Rv | 12.5 µg/mL |
| COCOC(OCOC)c1ccc([N+](=O)ONNC(=O)c2cccnc2)o1 |  | 6.25 µg/mL | resazurin | inhibition | H37Rv | 84% |
| O=C(NCc1ccc(F)cc1)c1ncccc1S |  |  |  | MIC | CNCTC MY 331/8 | 8 µM |
| CCN(CC)CCNC(=O)Nc1c(C#N)[n+]([O-])c2cc(F)ccc2[n+]1[O-] |  |  |  | MIC | H37Rv | <12.5 µg/mL |
| Cc1cccc(C)c1NC(=O)C(=O)Nn1c(NN)nc2ccccc2c1=O |  |  | BACTEC | MIC bound | H37Rv | >12.5 µg/mL |
| CO[C@H]1/C=C/O[C@@]2(C)Oc3c(C)c(O)c4c(O)c(c(/C=N/N5CCN(C)CC5)c(O)c4c3C2=O)NC(=O)/C(C)=C\C=C\[C@H](C)[C@H](O)[C@@H](C)[C@@H](O)[C@@H](C)[C@H](OC(C)=O)[C@@H]1C |  |  | broth dilution | MIC | H37Rv | 1.2 µg/mL |
| NC(=O)C(=O)NNC(=O)CCn1[nH]c(=O)c(Cl)c(Cl)c1=O |  |  | BACTEC | MIC bound | H37Rv | >12.5 µg/mL |
| Cc1ccc2nc(N)c(C#N)nc2c1 |  |  |  | MIC | H37Rv | >12.5 µg/mL |
| O=C(Nc1ncc([N+](=O)[O-])s1)c1cccnc1 |  |  |  | MIC | CS-R | 12.5 µg/mL |
| CCN(CC)CCNC(=O)c1cccc([N+](=O)[O-])c1 |  |  |  | MIC | N353 | 50 µg/mL |
| COc1cccc(-c2cc(=O)c3cc(N(C)C)ccc3[nH]2)c1 |  | 12.5 µg/mL | BACTEC | inhibition | H37Rv | -18% |
| CC[C@@H](CO)NCCN[C@@H](CC)CO | EJMCh4/1 MmpL3 (V285A) |  | visual reading / absorbance | MIC90 | H37Rv | 7.7 µM |

5 of the rows above, restated:

| smiles | changes | tested at | read by | read-out | strain | value |
|---|---|---|---|---|---|---|
| CC(=O)c1ccc([N+](=O)ONNC(=O)c2ccco2)cc1 |  | 6.25 µg/mL | resazurin | inhibition | H37Rv | 62% |
| O=c1oc2ccccc2c(=O)n1-c1ccc(F)cc1 |  |  |  | MIC | My 331/88 | 125 µM |
| O=C(Nc1ccc(Cl)cc1)c1ncccc1S |  |  |  | MIC | CNCTC MY 331/8 | 32 µM |
| O=C(NCc1cccc([N+](=O)[O-])c1)c1ncccc1O |  |  |  | MIC | CNCTC MY 331/8 | 500 µM |
| CCn1cc(C(=O)O)c(=O)c2cc([N+](=O)[O-])c3cccnc3c21 | gyrA mutation D94G |  |  | MIC90 | BCG | 2.67 µM |

An empty or dashed field is not shown. ECn: concentration that inhibits the pathogen or its effect by n%. MIC50, MIC90 and the like: level of inhibition, or share of isolates inhibited. MIC bound: limit read from a one-dose screen. Percent inhibition refers to the dose given; in toxicity tests it is the harm to the cells.